Data as given in PubChem BioAssay AID1224833 (University of Georgia, 2016)
Here is a random part of about 12,000 reagents tested. About 5,600 of all reagents (46%) were called active. 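Active calls cover z-scores past 1 in both directions, so they include lowered as well as raised rotavirus replication.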

Purpose: 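Host factors restraining rotavirus as candidate antiviral genes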 (primary screen)
Cells: monkey MA104 kidney cells
Reagents: siRNA pool against human genes, 50 nM
Timing: 48 h knock-down before infection; read 24 h after infection
Treatment: infection with rotavirus strain RV3 two days after transfection; infectious dose for this stage not given
Read-out: 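Rotavirus antigen per well by fluorescent immunoassay, normalised to non-targeting control wells on each plate and given as a standard z-score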
Direction: z-score vs non-targeting control: higher = more rotavirus replication than with non-targeting control
Call rule: In these data the active calls have z-score vs non-targeting control at about -1 or lower, or at about 1 or higher
Calls: active = z-score beyond 1 either way; inactive = z-score within 1 of zero

CXorf66 (GeneID 347487)
- z-score vs non-targeting control: 1.65
- Outcome: active

RPL24 (GeneID 6152)
- z-score vs non-targeting control: -1.27
- Outcome: active

CCND3 (GeneID 896)
- z-score vs non-targeting control: 1.21
- Outcome: active

TNFRSF19 (GeneID 55504)
- z-score vs non-targeting control: -1.23
- Outcome: active

PAX1 (GeneID 5075)
- z-score vs non-targeting control: -2.69
- Outcome: active

AADAT (GeneID 51166)
- z-score vs non-targeting control: 1.07
- Outcome: active

CLDN6 (GeneID 9074)
- z-score vs non-targeting control: -1.4
- Outcome: active

ZNF611 (GeneID 81856)
- z-score vs non-targeting control: -0.39
- Outcome: inactive

FLRT3 (GeneID 23767)
- z-score vs non-targeting control: -0.551
- Outcome: inactive

MXRA8 (GeneID 54587)
- z-score vs non-targeting control: -1.55
- Outcome: active

DORIP1 (GeneID 122525)
- z-score vs non-targeting control: -0.794
- Outcome: inactive

GAB2 (GeneID 9846)
- z-score vs non-targeting control: -0.962
- Outcome: inactive

PNISR (GeneID 25957)
- z-score vs non-targeting control: -0.656
- Outcome: inactive

COMMD4 (GeneID 54939)
- z-score vs non-targeting control: 0.319
- Outcome: inactive

LILRB5 (GeneID 10990)
- z-score vs non-targeting control: -0.733
- Outcome: inactive

CIC (GeneID 23152)
- z-score vs non-targeting control: 0.36
- Outcome: inactive

DLK2 (GeneID 65989)
- z-score vs non-targeting control: -0.397
- Outcome: inactive

RABL6 (GeneID 55684)
- z-score vs non-targeting control: -0.241
- Outcome: inactive

NARF (GeneID 26502)
- z-score vs non-targeting control: -1.12
- Outcome: active

FKBP8 (GeneID 23770)
- z-score vs non-targeting control: 1.17
- Outcome: active

SAMSN1 (GeneID 64092)
- z-score vs non-targeting control: -0.538
- Outcome: inactive

GSE1 (GeneID 23199)
- z-score vs non-targeting control: -1.77
- Outcome: active

THYN1 (GeneID 29087)
- z-score vs non-targeting control: 0.992
- Outcome: inactive

IL1RAPL2 (GeneID 26280)
- z-score vs non-targeting control: -1.78
- Outcome: active

TMEM92 (GeneID 162461)
- z-score vs non-targeting control: 0.646
- Outcome: inactive

HS3ST4 (GeneID 9951)
- z-score vs non-targeting control: -1.31
- Outcome: active

TMEM126A (GeneID 84233)
- z-score vs non-targeting control: -0.817
- Outcome: inactive

CLEC12B (GeneID 387837)
- z-score vs non-targeting control: -2.03
- Outcome: active

SCARB1 (GeneID 949)
- z-score vs non-targeting control: -2.98
- Outcome: active

CENPL (GeneID 91687)
- z-score vs non-targeting control: 1.38
- Outcome: active

SALL3 (GeneID 27164)
- z-score vs non-targeting control: -0.309
- Outcome: inactive

OR5AK2 (GeneID 390181)
- z-score vs non-targeting control: 2.23
- Outcome: active

Part of the list above, set out differently:
| gene | z-score vs non-targeting control | Outcome |
| --- | --- | --- |
| DORIP1 (GeneID 122525) | -0.794 | inactive |
| GAB2 (GeneID 9846) | -0.962 | inactive |
| PNISR (GeneID 25957) | -0.656 | inactive |
| COMMD4 (GeneID 54939) | 0.319 | inactive |
| LILRB5 (GeneID 10990) | -0.733 | inactive |
